Results of unrelated studies side by side (data: NIAID ChemDB).

Shared fields: tests on isolated targets; agent: Hepatitis C virus; target: NS5B polymerase; read-out: IC50

a–b is a range or a potency band. ICn: concentration for n% inhibition. An empty or dashed field is not shown. Rows are shuffled and stem from different studies.

smiles | strain | value
O=C(O)/C=C/c1ccc(NC(=O)C2(NC(=O)c3ccc4c(c3)nc(-c3ccccn3)n4C3CCCCC3)CCCC2)cc1 | - | <0.5 µM
CCSc1nc(N2CCN(C(=O)c3ccccc3)CC2)cc(N(C)c2ccc(N(CC)CC)cc2)n1 | - | 3 µg/mL
COc1cc(C(=O)N2[C@@H](c3nccs3)[C@@H](c3cnccn3)C[C@@]2(Cc2nccs2)C(=O)O)ccc1C(C)(C)C | Genotype 1A | <0.15 µM
CCC[C@]1(CC(=O)O)OCCc2c1[nH]c1c(C)ccc(C#N)c21 | 4A genotype 1B | 0.4 µM
Cc1nnsc1-c1nc2cc(C(=O)N[C@H](C(=O)O)c3c[nH]c4ccc(O)cc34)ccc2n1C1CCCCC1 | - | <1 µM
CCN(CC)c1ccc(Nc2cc(N3CCN(C(=O)c4ccncc4)CC3)nc(SCc3ccccc3)n2)cc1 | - | 3 µg/mL
COc1cc(C(=O)N2[C@@H](c3nccs3)[C@@H](c3cnccn3)C[C@@]2(CCS)C(=O)O)ccc1C(C)(C)C | genotype 1b | 0.1–0.5 µM
C=C[C@H]1C(C(=O)O)[C@@H]1NC(=O)c1ccc2c(c1)nc(-c1ccccn1)n2C1CCCCC1 | - | 10–25 µM
O=C(O)/C(=C/c1ccc(-c2ccccc2Cl)s1)NC(=O)c1ccccc1O | - | <10 µM
COc1ccc(S(=O)(=O)Nc2cc(C(=O)Nc3ccccc3OCc3ccccc3)n(CC(=O)N[C@H]3CCCC[C@@H]3OCc3ccccc3)n2)cc1 | - | 0.05–0.1 µM
O=C(N[C@@H](Cc1c[nH]c2ccc(O)cc12)C(=O)O)c1ccc2c(c1)nc(-c1ccoc1)n2[C@@H]1CC2CCC1C2 | - | <1 µM
O=C(Cn1nc(C(=O)Nc2nn[nH]n2)cc1C(=O)N[C@H]1CCCC[C@@H]1OCC1CCCCC1)N[C@H]1CCCC[C@@H]1OCc1ccccc1 | - | 0.1–1 µM
O=C(O)/C(=C/c1ccc(-c2ccccc2)o1)NC(=O)c1cccc(O)c1 | - | >30 µM
O=C(O)c1cc(NC(=O)C2(NC(=O)c3ccc4c(c3)nc(-c3ccoc3)n4C3CCCCC3)CCCC2)cc(C(=O)O)c1 | - | 0.5–5 µM
[N-]=[N+]=Nc1ccc(C(=O)NCCC(=O)COc2ccc(-c3nc4cc(C(=O)N[C@@H](Cc5c[nH]c6ccc(OCC(=O)O)cc56)C(=O)O)ccc4n3C3CCCCC3)cc2)cc1 | - | <1 µM
O=C(O)/C=C/c1ccc(NC(=O)C2(NC(=O)c3ccc4c(c3)nc(-c3ccc(OCC(=O)NCCNC(=O)c5ccc(C(=O)c6ccccc6)cc5)cc3)n4C3CCCCC3)CCN(C(=O)CCCCC3SC[C@H]4NC(=O)N[C@@H]34)CC2)cc1 | - | 5–25 µM
CCSc1nc(N2CCN(C(=O)c3ccccc3)CC2)cc(N(C)c2ccc(N(C)C)cc2)n1 | - | 3 µg/mL
O=C(Cn1nc(C(=O)NCC2CCCCC2)cc1C(=O)N[C@H]1CCCC[C@@H]1OCc1ccccc1)Nc1ccccc1OCc1ccccc1 | - | 0.1–1 µM
O=C(O)/C=C/c1ccc(NC(=O)C(Cc2ccccc2)NC(=O)c2ccc3c(c2)nc(-c2ccoc2)n3C2CCCCC2)cc1 | - | 0.5–5 µM
O=C(Cn1nc(NC(=O)C(F)(F)F)cc1C(=O)Nc1ccccc1OCc1ccccc1)N[C@H]1CCCC[C@@H]1OCc1ccccc1 | - | 0.1–1 µM
O=C(N[C@H](C(=O)O)c1c[nH]c2ccc(O)cc12)c1ccc2c(c1)nc(Cc1ccccc1)n2C1CCCCC1 | - | 1–5 µM
O=C(Cn1nc(C(=O)O)cc1C(=O)Nc1ccccc1OCC1CCC1)N[C@H]1CCCC[C@@H]1OCc1ccccc1 | - | ≤0.05 µM
COC(=O)c1sc(-c2ccccc2)cc1NS(=O)(=O)c1cc(C)c(Cl)cc1C | - | >100 µM
CCCCOC(=O)c1ccc(CCCC)nc1N(CCC)c1ccc(N2CCOCC2)cc1 | - | 3 µg/mL
CSc1nc2ccc(NC(=O)C3(NC(=O)c4ccc5c(c4)nc(-c4ccoc4)n5C4CCCCC4)CCCC3)cc2s1 | - | 0.5–5 µM
O=C(O)COc1ccc2[nH]cc(C[C@H](NC(=O)c3ccc4c(c3)nc(-c3ccc(OCC(=O)CCNC(=O)c5ccc(C(=O)c6ccccc6)cc5)cc3)n4C3CCCCC3)C(=O)O)c2c1 | - | <1 µM
CCCC1(CC(=O)O)CCCC2c3cc(Cl)ccc3NC21 | - | >33 µM
CCCN(CCC)CCSc1nnc2c(n1)[nH]c1ccccc12 | - | 0.056–83.5 µM
CCOC(=O)c1ccc(CC)nc1Nc1ccc(N2CCOCC2)cc1 | - | 3 µg/mL
CC(=O)Nc1ccc(C(=O)N/C(=C\c2ccc(-c3ccccc3Cl)s2)C(=O)O)cc1 | - | <10 µM
Cc1nc(C(=O)O)sc1-c1ccc(NC(=O)C2(NC(=O)c3ccc4c(c3)nc(-c3ccoc3)n4C3CCCCC3)CCCC2)cc1 | - | 0.5–5 µM
O=C(Cn1nc(N(c2ccccc2)c2ccccc2)cc1C(=O)N[C@H]1CCCC[C@@H]1OCc1ccccc1)N[C@H]1CCCC[C@@H]1OCc1ccccc1 | - | 0.1–1 µM
COc1cc(C(=O)N2[C@@H](c3nccs3)[C@@H](c3cnccn3)C[C@@]2(Cc2ccccc2)C(=O)O)ccc1C(C)(C)C | genotype 1b | 0.1–0.5 µM
COc1ccc(CCNC(=O)c2ccc3c(c2)nc(/C=C/c2ccccc2)n3C2CCCCC2)cc1OC | - | <1 µM
Cc1ccc(C(=O)N/C(=C\c2ccc(-c3ccccc3Cl)s2)C(=O)O)cc1 | - | >30 µM
CCCC1(CC(=O)O)CCCC2c3c(C#N)ccc(F)c3NC21 | - | 2 µM
CCOc1cc([C@@H](C)NC(=O)c2ccc3c(c2)nc(-c2ccco2)n3C2CCCCC2)ccc1OC | - | 5–10 µM
O=C(O)/C(=C/c1ccc(-c2ccccc2)o1)NC(=O)c1ccccc1O | - | 11–30 µM
COc1ccc([C@H](NC(=O)c2ccc3c(c2)nc(-c2ccoc2)n3C2CCCCC2)C(=O)O)cc1OC | - | <1 µM
COc1cc(C(=O)N2[C@@H](c3nccs3)[C@@H](c3cnccn3)C[C@@]2(CCS(C)(=O)=O)C(=O)O)ccc1C(C)(C)C | genotype 1b | >0.5 µM
O=C1NC(=S)NC(=O)C1Cc1ccc(-c2ccccc2C(F)(F)F)o1 | - | 0.056–83.5 µM
COc1cc(C(=O)N2[C@@H](c3nccs3)[C@@H](c3cnccn3)C[C@@]2(Cc2cnc[nH]2)C(=O)O)ccc1C(C)(C)C | genotype 1b | 0.1–0.5 µM
O=C(N[C@H](C(=O)O)c1ccc(O)cc1)c1ccc2c(c1)nc(-c1ccoc1)n2C1CCCCC1 | - | <1 µM
CCCCOC(=O)c1ccc(CCCC)nc1Nc1ccc(N2CCOCC2)cc1 | - | 3 µg/mL
O=C(O)CC(NC(=O)c1ccc2c(c1)nc(-c1ccccn1)n2C1CCCCC1)C1(C(=O)O)CCCC1 | - | 5–10 µM
O=C(Cn1nc(NS(=O)(=O)c2ccccc2)cc1C(=O)N[C@H]1CCCC[C@@H]1OCc1ccccc1)N[C@H]1CCCC[C@@H]1OCc1ccccc1 | - | 0.05–0.1 µM
O=C(N[C@H](Cc1c[nH]c2ccc(O)cc12)C(=O)O)c1ccc2c(c1)nc(-c1ccoc1)n2C1CCCCC1 | - | <1 µM
CCCC1(CC(=O)O)CCCC2c3ccc(F)c(F)c3NC21 | - | >33 µM
O=C(N[C@H](C(=O)O)c1c[nH]c2ccc(O)cc12)c1ccc2c(c1)nc(-c1cc3ccccc3[nH]1)n2C1CCCCC1 | - | 1–5 µM
CCCCSc1nc(Nc2ccc(N(CC)CC)cc2)cc(N2CCN(C(=O)c3ncccn3)CC2)n1 | - | 3 µg/mL
O=C(NC1(C(=O)Nc2ccc3ccc(=O)oc3c2)CCCC1)c1ccc2c(c1)nc(-c1ccoc1)n2C1CCCCC1 | - | 0.5–5 µM
O=C(O)c1cccc(NC(=O)N2CCC(NC(=O)c3ccc4c(c3)nc(-c3ccoc3)n4C3CCCCC3)CC2)c1 | - | 10–25 µM

Repeating the first 4 entries:

smiles,strain,value
O=C(O)/C=C/c1ccc(NC(=O)C2(NC(=O)c3ccc4c(c3)nc(-c3ccccn3)n4C3CCCCC3)CCCC2)cc1,-,<0.5 µM
CCSc1nc(N2CCN(C(=O)c3ccccc3)CC2)cc(N(C)c2ccc(N(CC)CC)cc2)n1,-,3 µg/mL
COc1cc(C(=O)N2[C@@H](c3nccs3)[C@@H](c3cnccn3)C[C@@]2(Cc2nccs2)C(=O)O)ccc1C(C)(C)C,Genotype 1A,<0.15 µM
CCC[C@]1(CC(=O)O)OCCc2c1[nH]c1c(C)ccc(C#N)c21,4A genotype 1B,0.4 µM